{"source": "PubChem BioAssay AID504761 – Drosophila RNAi Screening Center | 2011", "aim": "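Genome-wide fly cell screen for genes dengue virus requires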 (primary screen)", "system": "D.Mel-2 cells from Drosophila", "reagents": "long dsRNA against Drosophila genes", "challenge": "infection with dengue virus type 2; dose and infection time not stated", "read-out": "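Per well on two replicate plates, imaging gave the percent of cells positive for viral envelope protein, ranked by infection, and a nuclear count of cells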", "direction": "infection score: higher = more virus-infected cells; cell count: higher = more cells in the well", "active means": "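Very low infection ranking in both replicate wells (chance probability at most 0.065), then a retest showing infection dropped 1.5-fold or more at p below 0.05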", "calls": "active = confirmed: knock-down lowers infection; inactive = not picked or not confirmed", "note": "The screen tested about 22,000 reagents; this is an unselected part of those with a known target gene and a result. Over the whole deposit, 116 (0.52%) got an active call. 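Calls depend on retest data that are not deposited; infection was ranked per plate without normalising between plates; the unit of the infection score is not given.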 Raw values vary from plate to plate and are shown uncorrected. A plus sign joins genes that one reagent is predicted to hit. The record does not give: the amount of reagent, the time to read-out."}
{"target gene": "Taf4 (GeneID 39765)", "dsRNA": "DRSC11297", "infection score, replicate 1": 0.98, "infection score, replicate 2": 2.76, "cell count, replicate 1": 3787, "cell count, replicate 2": 3834, "Call": "active"}
{"target gene": "Taf4 (GeneID 39765)", "dsRNA": "DRSC25921", "infection score, replicate 1": 3.69, "infection score, replicate 2": 11.4, "cell count, replicate 1": 5279, "cell count, replicate 2": 5338, "Call": "inactive"}
{"target gene": "Him (GeneID 32801)", "dsRNA": "DRSC19638", "infection score, replicate 1": 14.5, "infection score, replicate 2": 16.3, "cell count, replicate 1": 5484, "cell count, replicate 2": 6735, "Call": "inactive"}
{"target gene": "CG7236 (GeneID 33798)", "dsRNA": "DRSC03037", "infection score, replicate 1": 3.65, "infection score, replicate 2": 1.48, "cell count, replicate 1": 5619, "cell count, replicate 2": 6420, "Call": "inactive"}
{"target gene": "CG7236 (GeneID 33798)", "dsRNA": "DRSC26976", "infection score, replicate 1": 2.07, "infection score, replicate 2": 16.9, "cell count, replicate 1": 6706, "cell count, replicate 2": 6101, "Call": "inactive"}
{"target gene": "CG13130 (retired record) (GeneID 50439)", "dsRNA": "DRSC02226", "infection score, replicate 1": 5.16, "infection score, replicate 2": 6.55, "cell count, replicate 1": 6417, "cell count, replicate 2": 6288, "Call": "inactive"}
{"target gene": "CG13130 (retired record) (GeneID 50439)", "dsRNA": "DRSC25021", "infection score, replicate 1": 6.14, "infection score, replicate 2": 3.93, "cell count, replicate 1": 6404, "cell count, replicate 2": 6356, "Call": "inactive"}
{"target gene": "CG34434 (GeneID 31472)", "dsRNA": "DRSC18134", "infection score, replicate 1": 0.7, "infection score, replicate 2": 0.58, "cell count, replicate 1": 6416, "cell count, replicate 2": 6674, "Call": "inactive"}
{"target gene": "CG34434 (GeneID 31472)", "dsRNA": "DRSC26923", "infection score, replicate 1": 4.42, "infection score, replicate 2": 16.5, "cell count, replicate 1": 3890, "cell count, replicate 2": 6054, "Call": "inactive"}
{"target gene": "CG34434 (GeneID 31472)", "dsRNA": "DRSC28486", "cell count, replicate 1": 447, "cell count, replicate 2": 378, "Call": "inactive"}
{"target gene": "Ass + CG31286", "dsRNA": "DRSC12493", "infection score, replicate 1": 16.5, "infection score, replicate 2": 30.2, "cell count, replicate 1": 5567, "cell count, replicate 2": 5130, "Call": "inactive"}
{"target gene": "SCCRO (GeneID 39685)", "dsRNA": "DRSC10844", "infection score, replicate 1": 2.47, "infection score, replicate 2": 16.6, "cell count, replicate 1": 6589, "cell count, replicate 2": 5825, "Call": "inactive"}
{"target gene": "SCCRO (GeneID 39685)", "dsRNA": "DRSC29998", "infection score, replicate 1": 24.1, "infection score, replicate 2": 16.6, "cell count, replicate 1": 6128, "cell count, replicate 2": 6686, "Call": "inactive"}

Targets above whose gene name starts with S or s:
{"target gene": "SCCRO (GeneID 39685)", "dsRNA": "DRSC10844", "infection score, replicate 1": 2.47, "infection score, replicate 2": 16.6, "cell count, replicate 1": 6589, "cell count, replicate 2": 5825, "Call": "inactive"}
{"target gene": "SCCRO (GeneID 39685)", "dsRNA": "DRSC29998", "infection score, replicate 1": 24.1, "infection score, replicate 2": 16.6, "cell count, replicate 1": 6128, "cell count, replicate 2": 6686, "Call": "inactive"}
